In patent US20230303667A1 (EMORY UNIVERSITY, published 2023):

Biological target: T1, Ebola Zaire (Kikwit strain) glycoprotein (Ebola Zaire (Kikwit strain), UniProt P87666 33-676)
T1 sequence: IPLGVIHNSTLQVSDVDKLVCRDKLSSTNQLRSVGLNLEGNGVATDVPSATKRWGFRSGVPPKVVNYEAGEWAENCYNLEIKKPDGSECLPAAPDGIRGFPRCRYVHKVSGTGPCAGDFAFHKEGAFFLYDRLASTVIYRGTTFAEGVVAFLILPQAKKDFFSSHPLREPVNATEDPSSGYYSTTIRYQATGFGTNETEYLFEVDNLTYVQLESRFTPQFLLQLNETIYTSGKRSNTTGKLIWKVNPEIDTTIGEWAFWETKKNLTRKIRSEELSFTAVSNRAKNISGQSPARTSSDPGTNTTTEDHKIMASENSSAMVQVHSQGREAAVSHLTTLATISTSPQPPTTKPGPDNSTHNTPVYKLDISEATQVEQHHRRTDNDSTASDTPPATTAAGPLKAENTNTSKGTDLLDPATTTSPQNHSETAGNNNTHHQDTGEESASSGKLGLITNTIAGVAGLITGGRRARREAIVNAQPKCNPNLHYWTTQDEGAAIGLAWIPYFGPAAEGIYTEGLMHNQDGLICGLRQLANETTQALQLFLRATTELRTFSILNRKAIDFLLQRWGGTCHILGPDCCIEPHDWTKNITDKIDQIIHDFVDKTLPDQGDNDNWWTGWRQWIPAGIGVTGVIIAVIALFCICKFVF
Experiment: cell-based or functional assay

B1: 2.1.7G07 (antibody, V domains shown)
VH: EVQLVESGGGLVQPGGSLRLSCAASGFAFSTYAMSWVRQAPGKGLEWVSAITGSGYSTYYADSVKGRFTISGDNSKNTLYLQMNSLRAEDTALYYCAKVGEYYDFWSGYSPFDSWGQGTLVTVSS
VL: EIVLTQSPGTLSLSPGERATLSCRASQSVSSSYLAWYQQKPGQAPRLLIYGAFNRATGIPDRFSGSGSGTDFTLTISRLEPEDFAVYYCQQYGRSPFTFGPGTKVDIK
Q: Which “PRNT50 (ug/ml) for Ebola Zaire (Kikwit strain)” value does the source give for B1 here?
A: The value was 1.57 µg/mL.
